These are literature values, as cited in patent publication US11054415B2, “Preparation of bioconjugates and antibodies for the immunodetection of anatoxin-a” (dated 2021).

The series concerns mice.

Take `CC(=O)C1=CCCC2CCC1N2` (stereo not shown): the “LD50 intraperitoneal in mice” value was 0.25 mg/kg.
